Reference: the supplement of paper PMC9931576
Where a chain is given by its changes, count along the chain named. Human monoclonal antibodies against the spike receptor-binding domain (heavy:light variable regions). IC50 against pseudoviruses bearing the spike of naturally observed variants; lower = stronger; >10 µg/ml means not reached at the top dose. No active / inactive call. The stated detection limit is 0.0005 µg/ml; values near or below 0.001 µg/ml lie at the floor of the assay.

B1: BD55-6619 (protein)
chain 1: QVQLVQSGADVKKPGASVKVSCKASGYTFTNFAMHWVRQAPGQSLEWLGWINPRNGNTRFSQKFQGRVAISRDISATTVYMELSRLRSEDTAVYYCARDHYDSSGYSFPPLYWGQGTQVTVSS
chain 2: DIVMTQSPDSLAVSLGERATINCRSSQSVLLDSDNRSYLAWYQQKPGQPPKLLIYWASTRESGVPDRFSGGGSGTDFTLTISSLQAEDVAVYYCQQYYTTPFYTFGQGTKLEIK
B2: BD55-6614 (protein)
chain 1: QVQLVQSGSELKKPGASVKVSCKASGYTFSGNAINWVRQAPGQGLEWMGWINTDTGNPTYAQGFTGRFVFSLDTSVGTAFLHISNLKAEDTAVYYCARGGGLYDSSGFYEGGLYYHYYMDVWGKGTTVTVSS
chain 2: EVVVTQSPGTLSLSPGETATLSCRASQSVAGSYLAWYQQKPGQAPRLLIFDTSTRATGIPDRFSGSGSGTDFTLTISRLEPEDFAFYYCQQFATSPYTFGQGTKLEIK
B3: BD55-6583 (protein)
chain 1: QVQLVQSGAEVKKPGASVKVSCKASGYTFTGHDINWVRQATGQGLEWMGWVSPNSGDTGYAHNFQGRVSMTRDTSMNTAYLELNSLRSEDTAVYYCAIYSGSGKFYPDYYYGFDVWGPGTPVTVSS
chain 2: DIQMTQSPSSLSASVGDRVTITCRTRQSISDHLNWYQQRPGKAPKLLIYAASSLKSGVPSRFSGSGSGTDFTLTINSLQPEDFATYYCQQSYSTPPTFGQGTKLEIK
B4: BD55-6615 (protein)
chain 1: QVQLVQSGAEVKKPGASVRVACRASGYTFTSQDINWVRQATGQGPEWMGWMNPKSGNTGYAQKFQARLTMTRNTSTSTAYMELSSLRSEDTAVYYCAGYSGSGRHYPDYYYGLDVWGQGTTVTVSS
chain 2: B3 chain 2 with S10A, T25A, R26S, H32Y, R39K, L46V, S52T, K55I, S65R, N76S
B5: BD55-6598 (protein)
chain 1: QVQLVQSGAEVKKPGASVKVSCKASGYTFSNYGISWVRQAPGQGLEWMGWISGYSGKTDYAQKFQGRVTVTTDTSPSTAYMELRSLRPDDTAVYYCVRDRYSYLYSDYEPFDSWGQGTLVTVSS
chain 2: DVVMTQSPLSLPVTLGQPASISCRSSQSLVYSDGNIFLSWFHQRPGQSPRRLIYKVSNRDSGVPDRFSGSGSGTDFTLKISRVEAEDVGVYYCMQGTHWPRTFGQGTRMEIK
B6: BD55-6610 (protein)
chain 1: B5 chain 1 with V70L, P88S, V97A, S106T, E109D
chain 2: B5 chain 2
B7: BD55-6622 (protein)
chain 1: QVQLVQSGSELKKPGASVKVSCKASGYTFANYAMHWVRQAPGQGLEWMGWINTNTGNPTYGQGFTGRFVFSLDTSVSTAYLQINSLKAEDTAVYYCARGDRNYYGYEASDIWGQGTMVTVSS
chain 2: DIRLTQSPPSLSASVGDRVTITCRASQSISNYLNWYQQKPGKAPNLLIYAASSLQSGVPSRFSGSGSGTDFSLTISSLQPEDFATYYCQQSYSSHLFTFGGGTTVEI
B8: BD55-6604 (protein)
chain 1: QVQLVQSGAEVRKPGASVKVSCKASGYIFTSYDINWVRQATGQGLEWMGWVNPNSGDTGYAHKFQGRVTMTGDTSISTAYMELSGLTSEDTAVYYCTIGASLPKYYYGSGSHWGQGTLVTVSS
chain 2: DIQMTQSQSSLSASVGDRVTITCRASQTINYYLNWYQQKPGKAPKLLIHAASTLQSGVPSRFSGSGSGTDFTLTISSLQPEDFATYYCQQSYSFPYTFGQGTKLEIK
B9: BD55-6595 (protein)
chain 1: EVQLAQSGAEVKKPGESLRISCKGSEYSSTNYWISWVRQMPGKGPEWIGRIYPGDSYTTYNPSFQGHVTISADKSISTAYLQWSSLKASDTAMYYCASQQVERMGYYYMDVWGEGTTVTVSS
chain 2: DIQMTQSPSSLSASVGDRVTITCRASQTISNYLNWYQQKPGKAPKLLIYEASTLQSGVPSRFGGSGSGTDFTLTISSLQPEDFATYYCQQSYTTPTWTFGQGTKVEIK
B10: BD55-6591 (protein)
chain 1: EVQLVQSGAEVKKPGESLKISCKASGYRFSSYWIAWVRQVPGKGPEWMGVIYPGDSDTRYSPSFQGQVTFSADKSANTAYLQWSSLKASDTAMYYCARHAGALQSIDWQNNGMDVWGQGTTVTVSS
chain 2: DIQMTQSPSSLSASVGDRVTITCRASLSIGTYLHWYQQKPGKAPKLLIFAASSLQSGVPSRFSGGGSGTDFTLTISSLQPEDSATYYCQQSYSTPSWTFGQGTKVEIK
B11: BD55-6589 (protein)
chain 1: EVQLVQSGPEVKKPGESLKISCTGFGDTFTNYWIAWVRQTPGKGLEWMGVIYPGDSDTRYSPSFQGQVIISADKSISTAYLQWSSLKASDTAMYYCGRLKHGYLYGIVDYWGQGTLVTVSS
chain 2: DIVMTQSPDSLAVSLGERATIKCKSSQSVLYSSNNKNYLAWYQQKPGQPPKLLIYWASTRESGVPDRFSGSGSGTDFTLTISSLQAEDVAVYYCQQYSSTSCTFGQGTKLEIK
B12: BD55-6607 (protein)
chain 1: QVQLVQSGAEVKKPGASVKVSCKTSGYFVDSYAIHWLRQAPGHRLEWMGRIDAGSGDTDYSHKFQARVAITRATSASTAYMELSSLTSEDTALYYCAKDYYGSGIYYLDSWGQGTPVTVSS
chain 2: DIQMTQSPSSLSASVGDRITITCRASQSINYYLNWYQQKPGKAPKLLIYAASSLQSGVPSRFSGSGSGTDFTLTISSLQPEDFATYFCHQTYTTLWTFGQGTKVEMK

Key:
Test in all cases: pseudovirus neutralization IC50; higher = weaker neutralization
[1] = target: SARS-CoV-2 Omicron BA.1 spike pseudovirus
Procedure: (§1)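 Single-round VSV luciferase pseudovirus mixed with antibody dilutions for 1 h and put on Huh-7 cells for about a day; IC50 from the dose curve.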

[2] = target: SARS-CoV-2 Omicron BA.2 spike pseudovirus
Procedure: as §1

[3] = target: SARS-CoV-2 Omicron BA.2.75 spike pseudovirus
Procedure: as §1

[4] = target: SARS-CoV-2 Omicron BA.5 spike pseudovirus
Procedure: as §1

[5] = target: SARS-CoV-2 Omicron BQ.1.1 spike pseudovirus
Procedure: as §1

[6] = target: SARS-CoV-2 Omicron XBB spike pseudovirus
Procedure: as §1

[7] = target: SARS-CoV-2 early D614G spike pseudovirus
Procedure: as §1

Binder	pseudovirus neutralization IC50 [1] [µg/mL]	pseudovirus neutralization IC50 [2] [µg/mL]	pseudovirus neutralization IC50 [3] [µg/mL]	pseudovirus neutralization IC50 [4] [µg/mL]	pseudovirus neutralization IC50 [5] [µg/mL]	pseudovirus neutralization IC50 [6] [µg/mL]	pseudovirus neutralization IC50 [7] [µg/mL]
B1	> 10	> 10	> 10	> 10	> 10	> 10	> 10
B2	> 10	> 10	> 10	> 10	> 10	> 10	> 10
B3	> 10	> 10	> 10	> 10	> 10	> 10	> 10
B4	> 10	> 10	> 10	> 10	> 10	> 10	> 10
B5	3.6	8.91	3.11	7.01	3.02	> 10	3.78
B6	2.76	4.82	4.83	3.27	3.8	1.56	1.91
B7	2.89	2.92	1.39	2.83	> 10	> 10	4.33
B8	> 10	> 10	> 10	> 10	> 10	> 10	> 10
B9	> 10	> 10	> 10	> 10	> 10	> 10	> 10
B10	> 10	> 10	> 10	> 10	> 10	> 10	> 10
B11	> 10	> 10	> 10	> 10	> 10	> 10	> 10
B12	> 10	> 10	> 10	> 10	> 10	> 10	> 10
